Data from publication PMC7156659 (2020).
Several values for one entry are separate records, joined by “and”; a condition that tells them apart may be missing. Identical values can stand only once.

Target: Lpg2149 (L. pneumophila, UniProt Q5ZTL2 1-119)
Assay: ITC

B1: MavC (residues 7–384) (enzyme)
chain: EKTGLHVHEKIKHMVKNYGTMITGIPAEILGQNEAEISVGYVKKMGNMKENIAEVVRKSEMTQPTNSCGKASNEVCDLLLGTEGASEFEKSSYQVLSGDGSNLKGSLPNKNLLVRVEMDRFNAPQKYQKIKREEFNPETAEKNKIYLLEDQLVYLDIFGKVIDLGQTSDTCHRLFNAITTPFYQNYILYDEYIDPEESAEEAAMFEMGEIVKAKMKNIDCWTATHSFTIFVPESDSEDTRTLYPYQAYWTSHTLQQWFSGDKDEKLSRLGIDGYIEKLALLGTTTDSKIRSSIYGELFSPPGKEHVFCTGMNEKFSPLRVKFKVTEVNPEIALQNLEEVQEFIDTNYPGENAKDQCELYKIKAQEAMTKQLEMRLLIE
  Kd: 5.52 nM and 11 nM
